For this experiment, the system named is 1G4 CTL clone. The experiment can be described thus: Intracellular Ca2+ measurements in 1G4 CTL clone. The class given is cell-based.

Experimental findings from paper PMC4222200 (Journal of immunology (Baltimore, Md. : 1950), 2010) are described below.

Regarding “influenza matrix58-66 peptide: influenza virus matrix 58–66 peptide: Ca2+/FACS negative control, positive control for A2 binding”, the “Ca2+ response pattern” value was “No significant Ca^2+ response”.
